Test results as given in the supplement of paper PMC9931576.
Human monoclonal antibodies against the spike receptor-binding domain (heavy:light variable regions). IC50 against pseudoviruses bearing the spike of naturally observed variants; lower = stronger; >10 µg/ml means not reached at the top dose. No active / inactive call. The stated detection limit is 0.0005 µg/ml; values near or below 0.001 µg/ml lie at the floor of the assay.

B1: BD57-066 (protein)
chain 1: EVQLVESGGGLVKPGGSLRLSCATSGFTFSSYSMNWVRQAPGKGLEWVSSISSSSSYIYYADSVKGRFTISRDNAKKSLYLQLNSLRAEDTAVYYCARGYWTETLPVFDYWGQGTLVTVSS
chain 2: NFMLTQPHSVSESPGQTVTISCTGNSGSIANNYVQWYQQRPGSAPTTVIYEDNQRPSGVPDRFSGSIDSSSNSASLTISGLQTEDEADYYCQSFEGNTHVVFGGGTKLTVL
B2: BD57-067 (protein)
chain 1: QVQLMQSGAEVKKPGSSVKVSCKASGGTFSSSAINWLRQAPGQGLEWMGRIIPTLGVAEYAQRFQGRVAISADKSTSTAYMELKSLTSEDTAVYYCARGTAEYSVVVVAATHIEYFQHWGQGTLVTVSS
chain 2: EIVMTQSPATLSVSPGERVTLSCRASQTVTINLAWYQQKPGQAPTLLIYGASVRATGIPARFSGSGSGTEFTLTISSLQSEDFAVYYCQQYNNSPPYTFGQGTKLEIK
B3: BD57-069 (protein)
chain 1: EGQLLESGGGLVQPGGSLRLSCAASGFTFSSYAMSWVRQAPGKGLEWVSVISGSSVNTDYADSVKGRFTISRDNSKNTLYLQMNSLRVEDTAIYYCARDRFTMLQGPYWGFDPWGQGTLVTVSS
chain 2: DVQMTQSPSSLSASVGDRVTLTCRASQSISHYLNWYQQKPGKAPKLLIYGASTLQSGVPSRFAGSGSGTDFTLTISSLQPEDFATYYCQQSYTTPALTFGGGTKVE
B4: BD57-073 (protein)
chain 1: QVQLQQWGAGLLKPSETLSLTCAVHGGSFSGYYWSWIRQPPGKGLEWVGEINQSGSTNYNPSLKSRVTISVDTSKNQLSLKLKSVTAADTAVYYCAREVQYDILTGQPLPGSFDAFDIWGQGTMVTVSS
chain 2: QSVLTQPPSASGTPGQRVTISCSGSNSNMGTNTVNWYQHLPGTAPKLLIYSNNQRPSGVPDRFSGSKSGTSASLAISGLQSEEEADYYCAVWDDSLNGVVFGGGTKLTVL
B5: BD57-075 (protein)
chain 1: EVQLVESGGGLVQPGGSLRLSCAASGFTFRSYDMHWVRQPTGKGLEWVSVIGTAGDTYYRDSVKGRFTISRENAKNSLNLQMNSLRAGDTAVYFCARGDIKSGLHIDYWGQGTLVTVSS
chain 2: DIQMTQSPSSLSASVGDRVTITCRASQSISSFLNWYQHKPGKAPKLLIYATSSLQSGVPSRFSGSGSGTDFTLTISSLQPEDFATYYCQQTYETPPWTFGQGTKVEIK
B6: BD57-078 (protein)
chain 1: EVQLVESGGGLVQPGRSLRLSCAASGFTFDDYAMHWVRQTPGQGLEWVSGVTWNSGTIGYTDSVKGRFTISRDNAKNSLFLQMNRLRVEDTAFYYCVKDMGVKSLWWEKEYYGMDVWGQGTTVTVSS
chain 2: QSVLTQPPSVSAAPGQKVTISCSGSSSNIGNNYVSWFRQLPGTAPKLLIYDNNKRPSGIPDRFSGSKSGTSATLGITGLQTGDEADYYCGTWDSSLSVYVFGTGTKVTVL
B7: BD57-085 (protein)
chain 1: EVQLVQSGAEVKKPGESLRISCKGSGYIFISYWINWVRQMPGKGLEWMGKIDPSDSYTNYSPSLQGHVTISADKSISTVYLQWSSLKASDTAMYYCATSEVWGQGTLVTVSS
chain 2: NFMLTQPHSVSESPGKTVTISCTRSSGSIASNYVQWYQQRPGSSPITVIYEDNQRPSGVPDRFSGSIDSSSNSASLTISGLKTEDEADYYCQSYDSSNTVFGGGTKLTVL
B8: BD57-087 (protein)
chain 1: QVQLVQSGAEVKKPGSSVKVSCKASGGTFSSDSITWVRQAPGQGLEWMGRVIPTLGVAYYAQNFQGRVTITADRSTSTAYMELSSLRSDDTAVYYCARESAVRGINTVWFDPWGQGTLVTVSS
chain 2: QSVLTQPPSVSGAPGQRVTISCTGSNSNIGAGYDVHWYQHLPGRAPKLLIYGNSNRPSGVPDRFSGSKSDTSASLAITGLLPEDEADYYCQSYDSSLSDSIFGGGTKLAVL
B9: BD57-088 (protein)
chain 1: QVQLVESGGGVVQPGRSLRLSCAASGFTFSSYAIHWVRQAPGKGLEWVAVISDDGVAKFYADSVKGRFTISRDNSKKTLYLQMNSLRAEDTAVYYCARDGERRTWVFDFWGQGTLVTVSS
chain 2: DIQMTQSPSSLSASVGDRLTITCRASQSISSYVNWYQQKPGKAPKLLIYAASSLQSGVPSRFSGSGSGTDFTLTISSLQPEDFATYYCQQTYSTPPGTFGQGTKVEIQ
B10: BD57-093 (protein)
chain 1: EVQLVESGGGVVQPGGSLRLSCVASGFMFEDYAMHWVRQVPGKGLEWVSVIDRDGGGTFYPDSVKGRFTVSRDNSKKSLYLQMSSLRTEDTAFYFCVKDVDIDISLVTVFDYWGQGTLVTVSS
chain 2: DIQMTQSPSSLSASVGDRVTITCRASQSISTYLNWYQQKSGKAPKLLIYAASSLQSGVPSRFSGSGSGTDFTLTISSLQPEDFATYYCQQSYITPPLTFGGGTKVDLK
B11: BD57-099 (protein)
chain 1: EVQLVESGGGLVQPGRSLRLSCAASGFTFDDYAMHWVRQAPGKGLEWVSGISWNGGIIGYTDSAKGRFTISRDNAKNSLYLQMISLRAEDTAFYYCAKDLYYHDSIGYDAFDIWGQGALVTVSS
chain 2: QSALTQPASVSGSPGQSITISCTGTSSDVGGYNYVSWYQQHSGKAPKLMMFDVTNRPSGVSNRFSGSKSGNTASLTISGLQAEDEADYYCSSYTSSSSVVFGGGTKLTVL
B12: BD56-001 (protein)
chain 1: EVQLVESGGGLVQPGGSLTLSCAASGLSVSRNYMIWVRQAPGKGLEWVSVIYSGGTTFYADSVKGRFTISRDNSKNTLFLQMNSLRAEDTAVYFCARDLGIAGAIDRWGQGTLVTVSS
chain 2: DIQLTQSPSFLSASVGDRVTITCRASQGIGSYLAWYQQKPGKAPKLLIYAASTLQSGVPSRFSGSGSGAEFILTITSLQPEDFATYYCQELNSEYFTFGPGTKVEIK

Biological target: SARS-CoV-2 Omicron BA.1 spike pseudovirus
Experiment: pseudovirus neutralization IC50; higher = weaker neutralization
Protocol: (§1)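 Single-round VSV luciferase pseudovirus mixed with antibody dilutions for 1 h and put on Huh-7 cells for about a day; IC50 from the dose curve.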

Going from B1 to B2, the “pseudovirus neutralization IC50” value falls from 1.02 µg/mL to 0.00363 µg/mL (280-fold).

Compared with B3, B4 is 1.6-fold higher in “pseudovirus neutralization IC50” value: 0.286 µg/mL for the first, 0.459 µg/mL for the second.

Compared with B5, B6 is lower in “pseudovirus neutralization IC50” value: greater than 10 µg/mL for the first, 0.0341 µg/mL for the second.

Compared with B7, B8 is 11-fold higher in “pseudovirus neutralization IC50” value: 0.0136 µg/mL for the first, 0.144 µg/mL for the second.

Going from B9 to B10, the “pseudovirus neutralization IC50” value rises from 5.87 µg/mL to greater than 10 µg/mL.

First: B11
Second: B12
The “pseudovirus neutralization IC50” value of the first is 13-fold lower: 0.21 µg/mL for the first, 2.7 µg/mL for the second.

Biological target: SARS-CoV-2 Omicron BA.2 spike pseudovirus
Experiment: as above
Protocol: as §1

Going from B1 to B2, the “pseudovirus neutralization IC50” value falls from 1.27 µg/mL to 0.0012 µg/mL (1100-fold).

First: B3
Second: B4
The “pseudovirus neutralization IC50” value of the first is 12-fold lower: 0.0399 µg/mL for the first, 0.479 µg/mL for the second.

First: B5
Second: B6
The “pseudovirus neutralization IC50” value of the first is higher: greater than 10 µg/mL for the first, 0.046 µg/mL for the second.

Compared with B7, B8 is 3.4-fold lower in “pseudovirus neutralization IC50” value: 0.251 µg/mL for the first, 0.0733 µg/mL for the second.

Going from B9 to B10, the “pseudovirus neutralization IC50” value rises from 4.97 µg/mL to greater than 10 µg/mL.

Going from B11 to B12, the “pseudovirus neutralization IC50” value rises from 0.169 µg/mL to 2.81 µg/mL (17-fold).

Biological target: SARS-CoV-2 Omicron BA.2.75 spike pseudovirus
Experiment: as above
Protocol: as §1

Compared with B1, B2 is 300-fold lower in “pseudovirus neutralization IC50” value: 1.05 µg/mL for the first, 0.00355 µg/mL for the second.

First: B3
Second: B4
The “pseudovirus neutralization IC50” value of the first is 2.4-fold lower: 0.232 µg/mL for the first, 0.55 µg/mL for the second.

Compared with B5, B6 is lower in “pseudovirus neutralization IC50” value: greater than 10 µg/mL for the first, 0.0385 µg/mL for the second.

First: B7
Second: B8
The “pseudovirus neutralization IC50” value of the first is 5.3-fold lower: 0.011 µg/mL for the first, 0.0585 µg/mL for the second.

First: B9
Second: B10
The “pseudovirus neutralization IC50” value of the first is lower: 5.38 µg/mL for the first, greater than 10 µg/mL for the second.

B11 and B12 are within 1.5-fold of each other in “pseudovirus neutralization IC50” value: 0.131 µg/mL for the first, 0.0896 µg/mL for the second.

Biological target: SARS-CoV-2 Omicron BA.5 spike pseudovirus
Experiment: as above
Protocol: as §1

Compared with B1, B2 is higher in “pseudovirus neutralization IC50” value: 0.996 µg/mL for the first, greater than 10 µg/mL for the second.

B3 and B4 cannot be ordered by “pseudovirus neutralization IC50” value: greater than 10 µg/mL for the first, greater than 10 µg/mL for the second.

Going from B5 to B6, the “pseudovirus neutralization IC50” value falls from greater than 10 µg/mL to 0.434 µg/mL.

First: B7
Second: B8
The “pseudovirus neutralization IC50” value of the first is lower: 0.494 µg/mL for the first, greater than 10 µg/mL for the second.

First: B9
Second: B10
The “pseudovirus neutralization IC50” value of the first is lower: 4.64 µg/mL for the first, greater than 10 µg/mL for the second.

B11 and B12 are within 1.5-fold of each other in “pseudovirus neutralization IC50” value: 2.8 µg/mL for the first, 2.57 µg/mL for the second.

Biological target: SARS-CoV-2 Omicron BQ.1.1 spike pseudovirus
Experiment: as above
Protocol: as §1

Going from B1 to B2, the “pseudovirus neutralization IC50” value rises from 1.18 µg/mL to greater than 10 µg/mL.

B3 and B4 cannot be ordered by “pseudovirus neutralization IC50” value: greater than 10 µg/mL for the first, greater than 10 µg/mL for the second.

B5 and B6 cannot be ordered by “pseudovirus neutralization IC50” value: greater than 10 µg/mL for the first, greater than 10 µg/mL for the second.

B7 and B8 cannot be ordered by “pseudovirus neutralization IC50” value: greater than 10 µg/mL for the first, greater than 10 µg/mL for the second.

Compared with B9, B10 is higher in “pseudovirus neutralization IC50” value: 9.34 µg/mL for the first, greater than 10 µg/mL for the second.

B11 and B12 cannot be ordered by “pseudovirus neutralization IC50” value: greater than 10 µg/mL for the first, greater than 10 µg/mL for the second.

Biological target: SARS-CoV-2 Omicron XBB spike pseudovirus
Experiment: as above
Protocol: as §1

Going from B1 to B2, the “pseudovirus neutralization IC50” value rises from 0.959 µg/mL to greater than 10 µg/mL.

B3 and B4 cannot be ordered by “pseudovirus neutralization IC50” value: greater than 10 µg/mL for the first, greater than 10 µg/mL for the second.

B5 and B6 cannot be ordered by “pseudovirus neutralization IC50” value: greater than 10 µg/mL for the first, greater than 10 µg/mL for the second.

Going from B7 to B8, the “pseudovirus neutralization IC50” value falls from greater than 10 µg/mL to 5.48 µg/mL.

Compared with B9, B10 is higher in “pseudovirus neutralization IC50” value: 6.25 µg/mL for the first, greater than 10 µg/mL for the second.

B11 and B12 cannot be ordered by “pseudovirus neutralization IC50” value: greater than 10 µg/mL for the first, greater than 10 µg/mL for the second.

Biological target: SARS-CoV-2 early D614G spike pseudovirus
Experiment: as above
Protocol: as §1

Compared with B1, B2 is 180-fold lower in “pseudovirus neutralization IC50” value: 1.01 µg/mL for the first, 0.00573 µg/mL for the second.

Going from B3 to B4, the “pseudovirus neutralization IC50” value falls from 0.0444 µg/mL to 0.029 µg/mL (1.5-fold).

First: B5
Second: B6
The “pseudovirus neutralization IC50” value of the first is higher: greater than 10 µg/mL for the first, 0.0282 µg/mL for the second.

B7 and B8 are within 1.5-fold of each other in “pseudovirus neutralization IC50” value: 0.154 µg/mL for the first, 0.19 µg/mL for the second.

Going from B9 to B10, the “pseudovirus neutralization IC50” value rises from 0.877 µg/mL to greater than 10 µg/mL.

First: B11
Second: B12
The “pseudovirus neutralization IC50” value of the first is 8.9-fold higher: 0.172 µg/mL for the first, 0.0193 µg/mL for the second.
